Results of unrelated studies side by side (data: NIAID ChemDB).

All rows: toxicity to cultured cells; measure: CC50

CCn is the concentration with n% toxicity to the cells. Neighbouring rows are from separate reports. a–b is a range or a potency band.

{"smiles": "CCOC(=O)CC(=O)NCC(OCC)(OCC)c1ccc2c(c1)OCO2", "cells": "BJ", "value": "<7.5 µM"}
{"smiles": "COc1ccc(-c2cnc3nc(N)nc(N4CCN(C(=O)Nc5cccc(C)c5)CC4)c3n2)cc1OC", "read by": "ATP", "cells": "Huh7", "value": "<10 µM"}
{"smiles": "Nc1nccc2c1ncn2[C@@H]1C=C(CO)[C@@H](O)[C@H]1O", "cells": "PBMC", "value": "9.98 µM"}
{"smiles": "NC(=O)c1c(Cl)c(-c2cccnc2)n2c1CCCC2", "cells": "CBLC", "value": ">30 µM"}
{"smiles": "CN(C(=O)[C@H](Cc1cc(F)cc(F)c1)NC(=O)CN1c2ccccc2N(CC(=O)N[C@@H](Cc2cc(F)cc(F)c2)C(=O)N(C)c2ccc3sncc3c2)S1(=O)=O)c1ccc2sncc2c1", "read by": "XTT", "cells": "MT-2", "value": "100 µM"}
{"smiles": "CC(=O)NC(CCSC[C@H]1O[C@@H](n2ccc3c(N)ncnc32)[C@H](O)[C@@H]1O)C(=O)O", "cells": "PRK/E6SM", "value": "400 µg/mL"}
{"smiles": "COc1c(C)c(C)c2[nH]c3ccccc3c2c1O", "read by": "resazurin", "cells": "NCI-H187", "value": "4.2 µg/mL"}
{"smiles": "CCOC(=O)CCCCCOc1cccc(CN(C(=O)c2ccc(-c3cccc(C(F)(F)F)c3)cc2)C(C)C)c1", "cells": "RAJI", "value": ">20 µM"}
{"smiles": "O=S(=O)(c1cccc2cnccc12)N1CCNCC1", "cells": "OM-10.1", "value": "11.5 µg/mL"}
{"smiles": "Nc1ncnc2c([C@@H]3O[C@H](CSCCC(N)C(=O)O)[C@@H](O)[C@H]3O)[nH]nc12", "cells": "PRK/E6SM", "value": "400 µg/mL"}
{"smiles": "Nc1ncnc2c1ncn2/C=C1/C[C@@H]1CO", "read by": "neutral red", "cells": "MEF", "value": "296 µM"}
{"smiles": "CN(C)c1ccc2c(COc3ccc(Cl)c(Oc4cc(Cl)cc(C#N)c4)c3)[nH]nc2n1", "read by": "microscopy", "cells": "MT-4", "value": ">20 µM"}
{"smiles": "Nc1nc(NC2CC2)c2ncn(C=C3CC3CO)c2n1", "read by": "neutral red", "cells": "MEF", "value": "220 µM"}
{"smiles": "O=c1[nH]c(=O)n([C@H]2C[C@H](O)[C@@H](COP3(=O)OCc4cccc(-c5ccccc5)c4O3)O2)cc1/C=C/Br", "cells": "HELF", "value": "55.2 µg/mL"}
{"smiles": "O=C1S/C(=C/c2ccc(O)c(O)c2)C(=O)N1c1ccc(O)cc1", "cells": "HOS", "value": "28 µM"}
{"smiles": "NC(=O)c1cc(-c2cccnc2[C@H](Cc2cc(F)cc(F)c2)NC(=O)NS(=O)(=O)N[C@@H](Cc2cc(F)cc(F)c2)c2ncccc2-c2ccc(F)c(C(N)=O)c2)ccc1F", "read by": "XTT", "cells": "MT-2", "value": "100 µM"}
{"smiles": "Cc1cccc(C)c1C(=O)N1CCC(N2CC[C@H](N(Cc3ccccc3)C(=O)C3CC3)C2)CC1", "cells": "MIP34.10", "value": "0.008 µM"}
{"smiles": "COCC(=O)NC(CCSC[C@H]1O[C@@H](n2ccc3c(N)ncnc32)[C@H](O)[C@@H]1O)C(=O)OC(C)C", "cells": "PRK/E6SM", "value": ">400 µg/mL"}
{"smiles": "CCOC(=O)c1cn(-c2ccnc3cc(Cl)ccc23)nn1", "read by": "MTT", "cells": "BGM", "value": "≥662 µM"}
{"smiles": "COc1ccc(-c2cnc3nc(N)nc(N4CCN(C(=O)NCc5ccc(F)cc5)CC4)c3n2)cc1OC", "read by": "ATP", "cells": "Huh7", "value": "<10 µM"}
{"smiles": "CCCc1cc(=O)oc2c3c(c4c(c12)OC(C)(C)CC4)O[C@@H](C)[C@H](C)[C@@H]3O", "cells": "CEMx174", "value": "10–20 µM"}
{"smiles": "CO[C@@H]1[C@H](O)[C@@H](CO)O[C@H]1n1ccc(N)nc1=O", "cells": "HBI10A", "value": ">100 µM"}
{"smiles": "CCOc1nc(NCc2ccc(S(N)(=O)=O)cc2)nc2ncc(-c3ccc(F)cc3)nc12", "read by": "ATP", "cells": "Huh7", "value": ">20 µM"}
{"smiles": "COc1ccc2[nH]c3c(Cc4ccc5[nH]c6c(C)c(C)c(OC)c(O)c6c5c4)c(C)c(OC)c(O)c3c2c1", "read by": "resazurin", "cells": "NCI-H187", "value": "19.2 µg/mL"}
{"smiles": "COc1ccc(N(C)C(=O)[C@H](Cc2cc(F)cc(F)c2)NC(=O)CN2c3ccccc3N(CC(=O)N[C@@H](Cc3cc(F)cc(F)c3)C(=O)N(C)c3ccc(OC)c(F)c3)S2(=O)=O)cc1F", "read by": "XTT", "cells": "MT-2", "value": "100 µM"}
{"smiles": "N#Cc1cc(Cl)cc(Oc2cc(OCc3[nH]nc4nc(N5CCOCC5)ccc34)ccc2Cl)c1", "read by": "microscopy", "cells": "MT-4", "value": ">20 µM"}
{"smiles": "CCOC(=O)C1=C(O)/C(=C\\c2cc(C)n(C3CCN(Cc4cccnc4)CC3)c2C)N=C1C", "cells": "L6", "value": "27 µM"}
{"smiles": "Nc1ncnc2c1ncn2C[C@H](O)CO", "cells": "PRK/E6SM", "value": ">400 µg/mL"}
{"smiles": "COC(=O)[C@H](C)NP(=O)(OC[C@H]1C/C1=C/n1cnc2c(N)nc(N)nc21)Oc1ccccc1", "read by": "neutral red", "cells": "MEF", "value": "211 µM"}
{"smiles": "CC1(C)NC(=O)n2c1nc(C(=O)NCc1ccc(F)cc1)c(O)c2=O", "read by": "microscopy", "cells": "MT-4", "value": ">1 µM"}
{"smiles": "Nc1nc(Cl)c2ncn(/C=C3/C[C@H]3CO)c2n1", "read by": "neutral red", "cells": "MEF", "value": "260 µM"}
{"smiles": "CC[C@H](C)Nc1nc(N)nc2ncc(-c3ccc(OC)c(OC)c3)nc12", "read by": "ATP", "cells": "Huh7", "value": ">20 µM"}
{"smiles": "COc1cccc2[nH]c3ccccc3c(=O)c12", "cells": "OM-10.1", "value": "17 µg/mL"}
{"smiles": "O=C(O)C(O)c1ccccc1", "cells": "T CELLS", "value": "1.82 µg/mL"}
{"smiles": "C/C=C/c1cc(=O)c(C(=O)c2c(OC)cc(OC)cc2C(=O)OC)co1", "read by": "MTT", "cells": "Huh7.5.1", "value": ">50 µM"}
{"smiles": "CC(C)N(Cc1cccc(OCCCCCC(=O)OC(=O)O)c1)C(=O)c1ccc(-c2cccc(F)c2)cc1", "cells": "HEK 293", "value": ">20 µM"}
{"smiles": "CN(C)C(=O)C(=O)N1CCN2CCn3c(nc(C(=O)NCc4ccc(F)cc4)c(O)c3=O)C1C2", "read by": "microscopy", "cells": "MT-4", "value": ">1 µM"}
{"smiles": "Nc1ncnc2c1ncn2/C=C1/C[C@H]1CO", "read by": "neutral red", "cells": "MEF", "value": ">518 µM"}
{"smiles": "CN(C(=O)[C@H](Cc1cc(F)cc(F)c1)NS(=O)(=O)CS(=O)(=O)N[C@@H](Cc1cc(F)cc(F)c1)C(=O)N(C)c1ccc2scnc2c1)c1ccc2scnc2c1", "read by": "XTT", "cells": "MT-2", "value": "100 µM"}
{"smiles": "O=C1C(=O)c2ccccc2C(O)=C1c1ccccc1", "read by": "MTT", "cells": "HEK293T", "value": "54.6 µM"}
{"smiles": "CCN(CC)CCCC(C)Nc1ccnc2cc(Cl)ccc12", "read by": "sulforhodamine", "cells": "NFF", "value": "24.1 µM"}
{"smiles": "N#Cc1cc(Cl)cc(Oc2cc(OCc3nc4cccc(Cl)c4s3)ccc2Cl)c1", "read by": "microscopy", "cells": "MT-4", "value": ">20 µM"}
{"smiles": "Cc1cc(CNC(=O)c2nc3n(c(=O)c2O)CCN(CC2CC2)CC3N(C)C(=O)C(=O)N(C)C)ccc1F", "read by": "microscopy", "cells": "MT-4", "value": ">1 µM"}
{"smiles": "O=c1[nH]c(=O)n([C@H]2C[C@H](O)[C@@H](COP3(=O)OCc4ccc5ccccc5c4O3)O2)cc1/C=C/Br", "cells": "HELF", "value": "34.1 µg/mL"}
{"smiles": "O=C1NC(=Nc2ccccc2O)S/C1=C/c1ccc(O)c(O)c1", "cells": "HOS", "value": "30 µM"}
{"smiles": "Clc1ccc2c(-n3cc(COC4CCCCO4)nn3)ccnc2c1", "read by": "MTT", "cells": "BGM", "value": "≥581 µM"}
{"smiles": "Nc1ncnc2c([C@@H]3O[C@H](CO)C[C@H]3O)[nH]nc12", "cells": "PRK/E6SM", "value": ">400 µg/mL"}
{"smiles": "CCOC(=O)CCCCCOc1cccc(CN(C(=O)c2ccc(-c3cccc(NC=O)c3)cc2)C(C)C)c1", "cells": "HEK 293", "value": ">20 µM"}
{"smiles": "C=C1[C@H]2C[C@@H]3N(CC[C@@]34c3cccc5c3N(C[C@H]3[C@H]6C[C@@H]7N(CC[C@@]78c7ccccc7N[C@@]538)C[C@H]6CC)[C@@H]14)C[C@H]2CC", "read by": "MTT", "cells": "HL-60", "value": "3.8 µM"}
{"smiles": "CN(C)S(=O)(=O)N(C)C1COCCn2c1nc(C(=O)NCc1ccc(F)cc1)c(O)c2=O", "read by": "microscopy", "cells": "MT-4", "value": ">1 µM"}
{"smiles": "COc1ccc(-c2cnc3nc(N)nc(N4CCN(Cc5cccc(C)c5)CC4)c3n2)cc1OC", "read by": "ATP", "cells": "Huh7", "value": "10–20 µM"}
{"smiles": "Cc1ncc(-c2c[nH]c3ccccc23)o1", "read by": "resazurin", "cells": "NCI-H187", "value": ">50 µg/mL"}
{"smiles": "COc1ccc(N(C)C(=O)[C@H](Cc2ccccc2)NC(=O)NS(=O)(=O)N[C@@H](Cc2ccccc2)c2nnc(SC)o2)cc1", "read by": "XTT", "cells": "MT-2", "value": "100 µM"}
{"smiles": "Nc1nc(Cl)c(-c2cc3ccccc3o2)c(N[C@@H]2C[C@H](CO)[C@@H](O)[C@H]2O)n1", "read by": "MTS", "cells": "Con-1", "value": ">25 µM"}
{"smiles": "COc1ccc(N(C)C(=O)[C@H](Cc2ccccc2)NC(=O)CC2(CC(=O)N[C@@H](Cc3ccccc3)C(=O)N(C)c3ccc(OC)cc3)CCCC2)cc1", "read by": "XTT", "cells": "MT-2", "value": "50 µM"}
{"smiles": "Cn1c2ccccc2c(=O)c2c(O)cccc21", "cells": "U-937", "value": "35 µg/mL"}
{"smiles": "CC1(C)c2nc(C(=O)NCc3ccc(F)cc3)c(O)c(=O)n2CCN1Cc1ncco1", "read by": "microscopy", "cells": "MT-4", "value": ">1 µM"}
{"smiles": "CCOc1nc(NCc2ccc(F)cc2)nc2ncc(-c3ccc(F)cc3)nc12", "read by": "ATP", "cells": "Huh7", "value": ">20 µM"}
{"smiles": "N#Cc1cc(Cl)cc(Oc2cc(OCc3[nH]nc4nc(N5CCNCC5)ccc34)ccc2Cl)c1", "read by": "microscopy", "cells": "MT-4", "value": ">20 µM"}
{"smiles": "Cn1c2ccccc2c(=O)c2c(O)c(O)ccc21", "cells": "OM-10.1", "value": "7.8 µg/mL"}
{"smiles": "CCOCCN1CCN(c2nc(N)nc3ncc(-c4ccc(OC)c(OC)c4)nc23)CC1", "read by": "ATP", "cells": "Huh7", "value": ">20 µM"}
{"smiles": "CC(=O)N1CCn2c(nc(C(=O)NCc3ccc(F)cc3)c(O)c2=O)C1CN(C)C", "read by": "microscopy", "cells": "MT-4", "value": ">1 µM"}
{"smiles": "O=c1[nH]c(=O)n([C@H]2C[C@H](O)[C@@H](CO[P@]3(=O)OCc4cccc(-c5ccccc5)c4O3)O2)cc1/C=C/Br", "cells": "HELF", "value": "73.1 µg/mL"}
{"smiles": "FCc1cn(-c2ccnc3cc(Cl)ccc23)nn1", "read by": "MTT", "cells": "BGM", "value": "763 µM"}
{"smiles": "Nc1nc(N)c2ncn(C=C3CC3CO)c2n1", "read by": "neutral red", "cells": "MEF", "value": ">293 µM"}
{"smiles": "COc1ccc(-c2cnc3nc(N)nc(N4CCN(C(=O)COc5ccccc5)CC4)c3n2)cc1OC", "read by": "ATP", "cells": "Huh7", "value": ">20 µM"}

For reference, 5 entries again:

{"smiles": "Clc1ccc2c(-n3cc(COC4CCCCO4)nn3)ccnc2c1", "read by": "MTT", "cells": "BGM", "value": "≥581 µM"}
{"smiles": "CN(C)c1ccc2c(COc3ccc(Cl)c(Oc4cc(Cl)cc(C#N)c4)c3)[nH]nc2n1", "read by": "microscopy", "cells": "MT-4", "value": ">20 µM"}
{"smiles": "Nc1ncnc2c([C@@H]3O[C@H](CO)C[C@H]3O)[nH]nc12", "cells": "PRK/E6SM", "value": ">400 µg/mL"}
{"smiles": "Nc1nc(Cl)c2ncn(/C=C3/C[C@H]3CO)c2n1", "read by": "neutral red", "cells": "MEF", "value": "260 µM"}
{"smiles": "O=c1[nH]c(=O)n([C@H]2C[C@H](O)[C@@H](CO[P@]3(=O)OCc4cccc(-c5ccccc5)c4O3)O2)cc1/C=C/Br", "cells": "HELF", "value": "73.1 µg/mL"}